Test results from patent US20230218721A1 (ZHEJIANG DOER BIOLOGICS CO., LTD., priority 2020, published 2023).

Assay: general procedure: Fmoc solid-phase peptide synthesis; Rink amide MBHA; DIC/HOBt
Settings: whole synthesis, scale of the general procedure 1.0 mmol

Row | Substance | final purity (method not given)
1 | YSEGT FTSDX10 SKYLDSQAAQDFVQWLLAGGPSSGAPPPS-NH2; X10 = K (((eicosandioic acid monoacyl)-γE)-2xOEG) | 97.1%
2 | YSEGT FTSDX10 SKYLDSQAAQDFVQWLLAGGPSSGAPPPS-NH2; X10 = K (((octadecanedioic acid monoacyl)-γE)-2xOEG) | 96.5%
